Pooled drug test results. Numbers come from NIAID ChemDB, via PubChem.

All rows: growth or infection tests

ECn is the concentration giving n% inhibition of infection, replication or growth. MIC50, MIC90 and the like: level of inhibition, or share of isolates inhibited. Conditions beyond the fields shown may differ between rows. Inhibition is in % at the dose shown (toxicity tests: loss of growth or viability). Zone: diameter of growth inhibition.

O=C(CC(=O)Nc1ccc(F)cc1)Nc1ccc(F)cc1 ; species: Klebsiella pneumoniae ; strain or isolate: KL21 ; read-out: MIC ; value: >300 µM
Nc1ncnc2c1ncn2[C@@H]1C=C[C@@H](O)[C@H]1O ; read by: neutral red ; species: Measles virus ; cells: CV-1 ; strain or isolate: Edmonston ; read-out: EC50 ; value: >64 µg/mL
O=C(Nc1ccncc1)Nc1cc(C(F)(F)F)cc(C(F)(F)F)c1 ; species: Klebsiella pneumoniae ; strain or isolate: KL21 ; read-out: MIC ; value: >300 µM
COc1ccc(S(=O)(=O)N(CC(C)C)CC(O)CN2CSC[C@H]2C(=O)NC(C)(C)C)cc1 ; read by: p24 ; species: HIV-1 ; cells: CEM ; strain or isolate: IIIB ; read-out: EC90 ; value: 1 µM
Nc1ncnc2c1ncn2[C@@H]1C[C@H](S)[C@@H](O)[C@H]1O ; read by: neutral red ; species: Measles virus ; cells: CV-1 ; read-out: EC50 ; value: >100 µg/mL
Cc1ccc2c(c1)C(C1SCC(=O)N1NC(=O)N1c3ccccc3C=Cc3ccccc31)C(c1ccccc1)=N2 ; tested at: 500 µg/mL ; read by: agar diffusion ; species: Aspergillus oryzae ; strain or isolate: MTCC-3567 ; read-out: zone ; value: 5 mm
N#Cc1ccc(CSc2ncnc3c2ncn3[C@@H]2O[C@H](CO)[C@@H](O)[C@H]2O)cc1 ; tested at: 25 µM ; species: Toxoplasma gondii ; strain or isolate: RH adenosine kinase-deficient ; read-out: inhibition ; value: 0%
O=C(Nc1cc(C(F)(F)F)cc(C(F)(F)F)c1)NN(Cc1cccc(O)c1)C(=O)Nc1cc(C(F)(F)F)cc(C(F)(F)F)c1 ; species: Klebsiella pneumoniae ; strain or isolate: KL21 ; read-out: MIC ; value: >300 µM
C/C=C\[C@@H]1C[C@H](C(=O)O)N[C@H]1[C@@H](NC(C)=O)[C@](C)(CCC)OC ; read by: plaque count ; species: Influenza B virus ; cells: MDCK ; strain or isolate: Memphis/3/89 ; read-out: EC50 ; value: 0.0067 µM
COc1ccc(S(=O)(=O)N(CC2CCCC2)C[C@@H](O)CN(CCc2ccccc2)C(=O)OCc2ccccc2)cc1 ; read by: p24 ; species: HIV-1 ; cells: CEM ; strain or isolate: IIIB ; read-out: EC90 ; value: 1 µM
C=CCc1ccc(O)c(OC)c1 ; read by: turbidity ; species: Candida albicans ; strain or isolate: 2434 ; read-out: MIC90 ; value: 475 µg/mL
Nc1nc(=O)n([C@@H]2O[C@H](CO)[C@@H](O)[C@@H]2F)cc1I ; tested at: 0.1 µg/mL ; read by: plaque count ; species: Varicella zoster virus ; cells: HELF ; strain or isolate: OKA ; read-out: inhibition ; value: 82%
Nc1ncnc2c1ncn2[C@@H]1CC[C@@H](O)[C@H]1O ; read by: cytopathic effect ; species: Measles virus ; cells: CV-1 ; strain or isolate: Edmonston ; read-out: EC50 ; value: >64 µg/mL
O=C(Nc1cc(C(F)(F)F)cc(C(F)(F)F)c1)NN1CCOCC1 ; species: Escherichia coli ; strain or isolate: ES142 ; read-out: MIC ; value: >300 µM
CO[C@H]1/C=C/O[C@@]2(C)Oc3c(C)c(O)c4c(O)c(c(/C=N/N5CCN(C6CCCC6)CC5)c(O)c4c3C2=O)NC(=O)/C(C)=C\C=C\[C@H](C)[C@H](O)[C@@H](C)[C@@H](O)[C@@H](C)[C@H](OC(C)=O)[C@@H]1C ; species: Mycobacterium avium intracellulare ; strain or isolate: 92 ; read-out: MIC ; value: 0.125 µg/mL
CC(C)(C)c1ccc(CSc2ncnc3c2ncn3[C@@H]2O[C@H](CO)[C@@H](O)[C@H]2O)cc1 ; tested at: 25 µM ; species: Toxoplasma gondii ; strain or isolate: RH (WILD TYPE) ; read-out: inhibition ; value: 52.8%
O=c1[nH]c(=O)n([C@@H]2O[C@H](CO)[C@@H](O)[C@@H]2O)cc1/C=C/Cl ; tested at: 0.001 µg/mL ; read by: plaque count ; species: Varicella zoster virus ; cells: HELF ; strain or isolate: Asahikawa ; read-out: inhibition ; value: 63%
O=C(NN1C(=O)CSC1C1C(c2ccccc2)=Nc2ccccc21)N1c2ccccc2C=Cc2ccccc21 ; tested at: 750 µg/mL ; read by: agar diffusion ; species: Aspergillus oryzae ; strain or isolate: MTCC-3567 ; read-out: zone ; value: 12 mm
CCC(CC)[C@H](NC(C)=O)[C@@H]1[C@H](O)[C@@H](C(=O)O)C[C@H]1N=C(N)N ; read by: visual reading ; species: Influenza A virus ; cells: MDCK ; strain or isolate: H3N2 A/X-31 ; read-out: EC50 ; value: 0.01 µM
NC(=NC1CCCC1)c1ccc(-c2ccc(-c3ccc(C(N)=NC4CCCC4)cc3)o2)cc1 ; species: Candida albicans ; strain or isolate: Isolate CA783 ; read-out: MFC ; value: 25 µg/mL
CN(NC(=O)Nc1cc(C(F)(F)F)cc(C(F)(F)F)c1)C(=O)Nc1cc(C(F)(F)F)cc(C(F)(F)F)c1 ; species: Klebsiella pneumoniae ; strain or isolate: KL21 ; read-out: MIC ; value: >300 µM
COc1ccc(S(=O)(=O)N(CC(C)C)C[C@@H](O)CCN(CC2CCCC2)S(=O)(=O)C2CS(=O)(=O)CC2O)cc1 ; read by: p24 ; species: HIV-1 ; cells: CEM ; strain or isolate: IIIB ; read-out: EC90 ; value: 1 µM
O=C(NN=CC1C(c2ccccc2)=Nc2ccccc21)N1c2ccccc2C=Cc2ccccc21 ; tested at: 500 µg/mL ; read by: agar diffusion ; species: Aspergillus oryzae ; strain or isolate: MTCC-3567 ; read-out: zone ; value: 11 mm
CS[C@H]1C[C@@H](n2cnc3cc4cncnc4cc32)[C@H](O)[C@@H]1O ; read by: neutral red ; species: Measles virus ; cells: CV-1 ; read-out: EC50 ; value: 100 µg/mL
O=C(Nc1cc(C(F)(F)F)cc(C(F)(F)F)c1)NS(=O)(=O)c1ccc(OC(F)(F)F)cc1 ; species: Klebsiella pneumoniae ; strain or isolate: KL21 ; read-out: MIC ; value: >200 µM
COc1ccc(S(=O)(=O)N(CC[C@H](O)CN2CSC[C@@H]2C(=O)NC(C)(C)C)CC(C)C)cc1 ; read by: p24 ; species: HIV-1 ; cells: CEM ; strain or isolate: IIIB ; read-out: EC90 ; value: 1 µM
CCO/N=C/c1ccc(OCCC2CCN(c3ccc(Cl)nn3)CC2)cc1 ; read by: neutral red ; species: Rhinovirus ; cells: KB ; strain or isolate: Baylor 1 (ICAM-1 receptor group 45) ; read-out: EC50 ; value: 0.258 µM
COc1ccc(S(=O)(=O)N(CC(O)CN2C(=O)OC[C@@H]2Cc2ccccc2)CC2CCCC2)cc1 ; read by: p24 ; species: HIV-1 ; cells: CEM ; strain or isolate: IIIB ; read-out: EC90 ; value: 1 µM
O=c1[nH]c(=O)n([C@@H]2O[C@H](CO)[C@@H](O)[C@@H]2O)cc1/C=C/Br ; tested at: 0.0001 µg/mL ; read by: plaque count ; species: Varicella zoster virus ; cells: HELF ; strain or isolate: OKA ; read-out: inhibition ; value: 0%
O=c1[nH]c(=O)n([C@H]2C[C@H](O)[C@@H](CO)O2)cc1I ; species: Herpes simplex virus 1 ; strain or isolate: KET ; read-out: MIC ; value: 1.1 µg/mL
O=c1[nH]c(=O)n([C@H]2C[C@H](O)[C@@H](CO)O2)cc1I ; tested at: 10 µg/mL ; read by: plaque count ; species: Varicella zoster virus ; cells: HELF ; strain or isolate: KANNO ; read-out: inhibition ; value: 100%
CCCCCCCCCCCCOC(=O)[C@]1(O)C[C@@H](O)[C@@H](O)[C@H](OC(=O)/C=C/c2ccc(O)c(O)c2)C1 ; species: Aspergillus flavus ; strain or isolate: AMP 9 ; read-out: MIC80 ; value: >1500 µg/mL
O=C(Nc1cccc(C2=NCCN2)c1)Nc1cccc(C2=NCCN2)c1 ; species: Klebsiella pneumoniae ; strain or isolate: KL21 ; read-out: MIC ; value: >300 µM
Cc1cn([C@@H]2O[C@H](CO)[C@@H](O)[C@@H]2O)c(=O)[nH]c1=O ; tested at: 0.1 µg/mL ; read by: plaque count ; species: Varicella zoster virus ; cells: HELF ; strain or isolate: OKA ; read-out: inhibition ; value: 16%

A second listing of 5 rows from above:

Cc1ccc2c(c1)C(C1SCC(=O)N1NC(=O)N1c3ccccc3C=Cc3ccccc31)C(c1ccccc1)=N2 ; tested at: 500 µg/mL ; read by: agar diffusion ; species: Aspergillus oryzae ; strain or isolate: MTCC-3567 ; read-out: zone ; value: 5 mm
CO[C@H]1/C=C/O[C@@]2(C)Oc3c(C)c(O)c4c(O)c(c(/C=N/N5CCN(C6CCCC6)CC5)c(O)c4c3C2=O)NC(=O)/C(C)=C\C=C\[C@H](C)[C@H](O)[C@@H](C)[C@@H](O)[C@@H](C)[C@H](OC(C)=O)[C@@H]1C ; species: Mycobacterium avium intracellulare ; strain or isolate: 92 ; read-out: MIC ; value: 0.125 µg/mL
O=C(Nc1cc(C(F)(F)F)cc(C(F)(F)F)c1)NS(=O)(=O)c1ccc(OC(F)(F)F)cc1 ; species: Klebsiella pneumoniae ; strain or isolate: KL21 ; read-out: MIC ; value: >200 µM
COc1ccc(S(=O)(=O)N(CC2CCCC2)C[C@@H](O)CN(CCc2ccccc2)C(=O)OCc2ccccc2)cc1 ; read by: p24 ; species: HIV-1 ; cells: CEM ; strain or isolate: IIIB ; read-out: EC90 ; value: 1 µM
O=C(Nc1ccncc1)Nc1cc(C(F)(F)F)cc(C(F)(F)F)c1 ; species: Klebsiella pneumoniae ; strain or isolate: KL21 ; read-out: MIC ; value: >300 µM